# Earlier results as cited in patent publication US11058716B2 (priority 2015, dated 2021).
# Tested on: Pseudomonas aeruginosa
# Details: 2˜4 mM; cited from earlier work
smiles,measurement,value
Oc1cc(O)c2c(c1)O[C@H](c1ccc(O)c(O)c1)[C@@H](O)C2,reduction of the synthesis of PCN,50%
